Compound potency records, mixed from different reports. Data source: NIAID ChemDB in PubChem.

All rows: tests in culture; species: Candida tropicalis

Inhibition is in % at the dose shown (toxicity tests: loss of growth or viability). ECn is the concentration giving n% inhibition of infection, replication or growth. Neighbouring rows are from separate reports. MIC50, MIC90 and the like: level of inhibition, or share of isolates inhibited. Zones are inhibition diameters on agar. An empty or dashed field is not shown.

smiles	strain or isolate	cells	method	conditions	measure	dose	result
O=C(/C=C/c1ccccc1Br)OC1CCN(CC(O)(Cn2cncn2)c2ccc(F)cc2F)CC1			broth dilution		MIC80		0.458 µM
COc1ccc(C(c2ccc(OC)cc2)n2ccnc2)cc1			broth dilution		MFC		>256 µg/mL
Cc1ccc(-n2cc(C(C)(C)O)nn2)cc1C	URM 916		broth dilution		inhibition	2048 µg/mL	0%
O=C1N[C@H](Cc2ccccc2)C(=O)N2CCC[C@H]12	MTCC 184		broth dilution		MIC100		32 µg/mL
CCC(=O)OC1CCN(CC(O)(Cn2cncn2)c2ccc(F)cc2F)CC1			broth dilution		MIC80		0.159 µM
Fc1ccc(C(Cn2ccnc2)NC/C=C/c2ccccc2)cc1	CBS 94 CA 44 CA 14	VERO			EC50		25 µg/mL
C[C@H]1[C@H](O)[C@@H](C)/C=C/C=C/C=C/C=C/C=C/C=C/C=C/[C@H](O[C@@H]2O[C@H](C)[C@@H](O)[C@H](N)[C@@H]2O)C[C@@H]2O[C@](O)(C[C@@H](O)C[C@@H](O)CC[C@H](O)[C@@H](O)C[C@@H](O)CC(=O)O[C@H]1C)C[C@H](O)[C@H]2C(=O)O	11 isolates				MIC90		1 µg/mL
Clc1nccc2nc(-c3ccccn3)c(-c3ccccn3)nc12					zone	250 mg/mL	30 mm
CCC(C)CC(C)CCCCCCCCC(=O)N[C@H]1C[C@@H](O)[C@H](NCCN)NC(=O)[C@@H]2[C@@H](O)CCN2C(=O)[C@H]([C@H](O)CCN)NC(=O)[C@H]([C@H](O)[C@@H](O)c2ccc(O)cc2)NC(=O)[C@@H]2C[C@@H](O)CN2C(=O)[C@H]([C@@H](C)O)NC1=O			broth dilution		MIC50		0.25 µg/mL
COc1ccc(/C=C/C(=O)OC2CCN(CC(O)(Cn3cncn3)c3ccc(F)cc3F)CC2)cc1			broth dilution		MIC80		0.125 µM
C[C@@H]1C(=O)N(CCCc2ccccc2)C(=O)[C@@H]1C	CCC 131-2000		broth dilution / turbidity		MIC		62.5 µg/mL
C[C@H]1N(C(=O)c2ccc(C(F)(F)F)cc2)C[C@@H](O)O[C@@]1(Cn1cncn1)c1ccc(F)cc1F	Isolate 2				MIC		>100 µg/mL
O=C(/C=C/c1ccc(Cl)cc1)OC1CCN(CC(O)(Cn2cncn2)c2ccc(F)cc2F)CC1			broth dilution		MIC80		0.124 µM
c1ccc(C(c2ccccc2)n2cncn2)cc1			agar		MIC90		32 µg/mL
O=C(OC(CCn1ccnc1)c1ccccc1)c1cccnc1			agar diffusion		zone	1000 µg	16 mm
c1ccc(C(c2ccccc2)n2nnc3ccccc32)cc1			broth dilution		MFC		>256 µg/mL
C[C@H]1[C@H](O)[C@@H](C)/C=C/C=C/C=C/C=C/C=C/C=C/C=C/[C@H](O[C@@H]2O[C@H](C)[C@@H](O)[C@H](N)[C@@H]2O)C[C@@H]2O[C@](O)(C[C@@H](O)C[C@@H](O)CC[C@H](O)[C@@H](O)C[C@@H](O)CC(=O)O[C@H]1C)C[C@H](O)[C@H]2C(=O)O	10 isolates				MIC50		0.2 µg/mL
CC(C)(O)c1cn(-c2ccccc2)nn1	URM 4790		broth dilution		inhibition	2048 µg/mL	0%
CCOc1ccc2nc3cc(N=C4NC(=O)/C(=C\c5ccc([N+](=O)[O-])o5)S4)ccc3c(N)c2c1	ATCC 8302		broth dilution		MFC		333 µg/mL
CCCCCCCCCCCCC(=O)OC1CCN(CC(O)(Cn2cncn2)c2ccc(F)cc2F)CC1			broth dilution		MIC80		1.922 µM
O=c1[nH]c(=O)c2nc(-c3ccccn3)c(-c3ccccn3)nc2[nH]1					zone	500 mg/mL	21 mm
O=C1N[C@@H](Cc2c[nH]c3ccccc23)C(=O)N2CCC[C@@H]12	MTCC 184		agar diffusion / agar		zone	4 µg/mL	22 mm
Clc1ccc(C(Cn2ccnc2)NC/C=C/c2ccccc2)c(Cl)c1	CBS 94 CA 44 CA 14	VERO			EC50		12 µg/mL
Clc1ccc(C(Cn2ccnc2)OCc2csc3c(Cl)cccc23)c(Cl)c1	65 isolates		absorbance	24 h	MIC50		1 µg/mL
CC(=O)OC[C@H]1O[C@@H](O[C@@H]2[C@@H](N=[N+]=[N-])[C@H](O)[C@H](O)[C@H]3OC(C)(C)O[C@H]32)[C@H](OC(C)=O)[C@@H](OC(C)=O)[C@H]1OC(C)=O	C 131		broth dilution / turbidity		inhibition	250 µg/mL	20.16%
CC1CC(=O)N(Cc2ccccc2)C1=O	CCC 131-2000		broth dilution / turbidity		MIC		125 µg/mL
Clc1ccc(C(c2ccccc2)N2CCN(CCn3ccnc3)CC2)cc1			agar		MIC90		>256 µg/mL
OC(CNCCCOc1ccccc1)(Cn1cncn1)c1ccc(F)cc1F					EC80		<0.125 µg/mL
O=c1ncc2nc(-c3ccccn3)c(-c3ccccn3)nc2[nH]1					zone	250 mg/mL	15 mm
O=C(OC1CCN(CC(O)(Cn2cncn2)c2ccc(F)cc2F)CC1)C(F)(F)F			broth dilution		MIC80		2.304 µM
Clc1ccc(C(Cn2ccnc2)NCc2ccc(-c3ccccc3)cc2)c(Cl)c1	CBS 94 CA 44 CA 14	VERO			EC50		6 µg/mL
Cc1ccc(N2C(=O)C[C@@H](C)C2=O)cc1	CCC 131-2000		broth dilution / turbidity		MIC		62.5 µg/mL
O=C(CC1=Nc2ccccc2C1)OC1CCN(CC(O)(Cn2cncn2)c2ccc(F)cc2F)CC1			broth dilution		MIC80		0.126 µM
O=C(c1ccccc1)C(c1ccccc1)n1ccnc1			broth dilution		MFC		>256 µg/mL
C[C@H]1[C@H](O)[C@@H](C)/C=C/C=C/C=C/C=C/C=C/C=C/C=C/[C@H](O[C@@H]2O[C@H](C)[C@@H](O)[C@H](N)[C@@H]2O)C[C@@H]2O[C@](O)(C[C@@H](O)C[C@@H](O)CC[C@H](O)[C@@H](O)C[C@@H](O)CC(=O)O[C@H]1C)C[C@H](O)[C@H]2C(=O)O	CCC 131-2000		broth dilution / turbidity		MIC		0.48 µg/mL
CC(C)(O)c1cn(-c2ccc([N+](=O)[O-])cc2)nn1	URM 4262		broth dilution		inhibition	2048 µg/mL	0%
C[C@@H]1CC(=O)N(c2ccc(F)cc2F)C1=O	CCC 131-2000		broth dilution / turbidity		MIC		62.5 µg/mL
CC(C)CC1NC(=O)CC(CCCCCCCCC(C)O)OC(=O)C(CC(C)C)NC(=O)C(CC(C)C)NC(=O)C(CC(C)C)NC(=O)C(C(C)C)NC(=O)C(CC(=O)O)NC(=O)C(CC(C)C)NC1=O	MTCC 1406		visual reading		MFC		4 µg/mL
CO[C@@H]1C(COC(=O)CCC(=O)O)=CC2C(=O)O[C@H]3C[C@@H](C/C=C(\C)C[C@@H](C)/C=C/C=C4\CO[C@H]1[C@@]42O)O[C@@]1(CC[C@H](C)[C@@H](C)O1)C3	FA1572				MFC		>0.5 µg/mL
Fc1ccc(C(Cn2ccnc2)NCc2ccc(-c3ccccc3)cc2)cc1	CBS 94 CA 44 CA 14	VERO			EC50		12 µg/mL
CC(=O)Nc1ccc(C(=O)N/N=C/c2ccc(N(C)C)cc2)cc1	ATCC 750		broth dilution		EC50		770 µM
OC(Cn1cncn1)(Cn1cncn1)c1ccc(F)cc1F	Berkout KCCM 50662				MIC		0.8 µg/mL
CCCCCCCCCCCCCCCCn1cc[n+](C)c1	102A		broth dilution		MIC		0.014 µg/mL
CCCCCCCCCCCCCCCC(=O)NC(CCCCN)C(=O)NC(CCCCN)C(N)=O	750		broth dilution		MIC		0.5 µg/mL
CC(C)(O)c1cn(-c2ccc3ccccc3c2)nn1	URM 1150		broth dilution		inhibition	2048 µg/mL	0%
CC1C(=O)N(Cc2ccccc2)C(=O)C1C	CCC 131-2000		broth dilution / turbidity		MIC		125 µg/mL
CC(C)C(=O)OC1CCN(CC(O)(Cn2cncn2)c2ccc(F)cc2F)CC1			broth dilution		MIC80		0.612 µM
O=c1[nH]cnc2nc(-c3ccccn3)c(-c3ccccn3)nc12					zone	250 mg/mL	25 mm
CC(=O)N1CCN(c2ccc(OC[C@H]3CO[C@](Cn4ccnc4)(c4ccc(Cl)cc4Cl)O3)cc2)CC1	T-1		agar diffusion / agar		zone	20 mg/mL	18 mm
Clc1ccc(C(c2ccccc2)n2ccnc2)cc1			broth dilution		MFC		0.5 µg/mL
O/N=C/c1ccc(O)cc1					MIC100		>7290 µM
COc1ccc(C(CCn2ccnc2)OC(=O)c2ccc(Cl)cc2)cc1			agar diffusion		zone	1000 µg	14 mm
CC(=O)Nc1ccc(C(=O)N/N=C/c2cccc(O)c2)cc1	ATCC 750		broth dilution		EC50		17 µM
O=C(OC(CCn1ccnc1)c1ccc(Cl)cc1)c1ccc(Cl)cc1			agar diffusion		zone	1000 µg	14 mm
C=CCc1ccc(O)c(OC)c1	2442		turbidity		MIC90		480 µg/mL
N=c1oc2ccccc2c2csc(N)c12	ATCC 750		broth dilution		MIC		16 µg/mL
CC(C)CC(O)C(=O)O	D 213		broth dilution		EC50		18000 µg/mL
C[C@@H]1[C@H](O)[C@@H](C)/C=C/C=C/C=C/C=C/C=C/C=C/C=C/[C@H](O[C@@H]2O[C@H](C)[C@@H](O)[C@H](N)[C@@H]2O)C[C@@H]2O[C@](O)(C[C@@H](O)C[C@@H](O)[C@H](O)CC[C@@H](O)C[C@@H](O)CC(=O)O[C@H]1C)C[C@H](O)[C@H]2C(=O)O	RC-501		broth dilution		EC50		0.5 µg/mL
CCC(C)n1ncn(-c2ccc(N3CCN(c4ccc(OC[C@H]5CO[C@](Cn6cncn6)(c6ccc(Cl)cc6Cl)O5)cc4)CC3)cc2)c1=O	10 isolates				MIC90		1.6 µg/mL
Cc1ccc(N2C(=O)CC(C)C2=O)cc1	CCC 131-2000		broth dilution / turbidity		MIC		250 µg/mL
Clc1ccc(C(Cn2ccnc2)NCc2cccc3ccccc23)cc1	CBS 94 CA 44 CA 14	VERO			EC50		12 µg/mL
CC1CC(=O)N(c2ccc([N+](=O)[O-])cc2)C1=O	CCC 131-2000		broth dilution / turbidity		MIC		125 µg/mL
O/N=C\c1ccc(O)cc1			broth dilution		MFC		>7290 µM
Clc1ccc(C(Cn2ccnc2)NC/C=C/c2ccccc2)cc1	CBS 94 CA 44 CA 14	VERO			EC50		50 µg/mL
Nc1nc2nc(-c3ccccn3)c(-c3ccccn3)nc2c(=O)[nH]1					zone	500 mg/mL	33 mm
Clc1ccc(C(c2ccccc2)n2cnc3ccccc32)cc1			broth dilution		MFC		>256 µg/mL
CC1CC2=C(O1)c1ccccc1C(=O)C2=O	Clinical isolate		broth dilution		MIC		25.4 µg/mL
O=C(OC(CCn1ccnc1)c1ccccc1)c1ccc(F)cc1			agar diffusion		zone	1000 µg	16 mm

Again, the opening 4 rows:

smiles	strain or isolate	cells	method	conditions	measure	dose	result
O=C(/C=C/c1ccccc1Br)OC1CCN(CC(O)(Cn2cncn2)c2ccc(F)cc2F)CC1			broth dilution		MIC80		0.458 µM
COc1ccc(C(c2ccc(OC)cc2)n2ccnc2)cc1			broth dilution		MFC		>256 µg/mL
Cc1ccc(-n2cc(C(C)(C)O)nn2)cc1C	URM 916		broth dilution		inhibition	2048 µg/mL	0%
O=C1N[C@H](Cc2ccccc2)C(=O)N2CCC[C@H]12	MTCC 184		broth dilution		MIC100		32 µg/mL